Data published in paper PMC6855506.

Legend:
[1] = target: T1, AphA (Vibrio cholerae) (UniProt Q9X399); assay: DNase I footprinting; conditions: 40 mM Tris acetate pH 7.9, 50 mM KCl, 5 mM MgCl2, 500 uM DTT, 12.5 ug/ml herring sperm DNA, recombinant protein, protein details: C-terminal His6 (pET21a), label: 32P end label, probe letters rebuilt from the primers and the genome
T1 sequence: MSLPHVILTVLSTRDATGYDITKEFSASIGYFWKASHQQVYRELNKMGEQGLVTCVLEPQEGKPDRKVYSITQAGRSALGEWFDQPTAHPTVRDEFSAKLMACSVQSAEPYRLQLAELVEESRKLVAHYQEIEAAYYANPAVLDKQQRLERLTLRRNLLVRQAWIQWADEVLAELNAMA

[2] = target: CRP (Vibrio cholerae) (UniProt O34015); assay: DNase I footprinting; conditions: 40 mM Tris acetate pH 7.9, 50 mM KCl, 5 mM MgCl2, 500 uM DTT, 12.5 ug/ml herring sperm DNA, recombinant protein, label: 32P end label, probe letters rebuilt from the primers and the genome
[3] = system: AphA + CRP; assay: DNase I footprinting; conditions: 3 uM CRP + 1-3 uM AphA, both sites protected; 40 mM Tris acetate pH 7.9, 50 mM KCl, 5 mM MgCl2, 500 uM DTT, 12.5 ug/ml herring sperm DNA; recombinant protein; protein details: C-terminal His6 (pET21a); label: 32P end label; probe letters rebuilt from the primers and the genome
[4] = target: CRP (Vibrio cholerae) (UniProt O34015); assay: EMSA; conditions: 3 uM CRP; 40 mM Tris acetate pH 7.9, 50 mM KCl, 5 mM MgCl2, 500 uM DTT, 12.5 ug/ml herring sperm DNA; EMSA 15 min at 37 C; recombinant protein; label: 32P end label; probe letters rebuilt from the primers and the genome
[5] = target: T1, AphA (Vibrio cholerae); assay: EMSA; conditions: 1 uM AphA; 40 mM Tris acetate pH 7.9, 50 mM KCl, 5 mM MgCl2, 500 uM DTT, 12.5 ug/ml herring sperm DNA; EMSA 15 min at 37 C; recombinant protein; residues 1-179; protein details: C-terminal His6 (pET21a); label: 32P end label; probe letters rebuilt from the primers and the genome
[6] = system: AphA + CRP; assay: EMSA; conditions: 1 uM AphA + 3 uM CRP, super-shifted complex; 40 mM Tris acetate pH 7.9, 50 mM KCl, 5 mM MgCl2, 500 uM DTT, 12.5 ug/ml herring sperm DNA; EMSA 15 min at 37 C; recombinant protein; protein details: C-terminal His6 (pET21a); label: 32P end label; probe letters rebuilt from the primers and the …

“AATTCCATTTCCCAAAATCCTTTGCAAACCGTGAGAGGATGATGAATCAACTTGCATAGATGCTAACAGCTATCAAAAATGGCGTTGTTTTATAAAGAGAAGTAATGGAAATGA / AGCTTCATTTCCATTACTTCTCTTTATAAAACAACGCCATTTTTGATAGCTGTTAGCATCTATGCAAGTTGATTCATCATCCTCTCACGGTTTGCAAAGGATTTTGGGAAATGG [VC0857-VC0858 intergenic region]”: binds ([1]; 0.25-2 uM AphA, 25 bp protected, residues …).

“AATTCTAGAGGAGCAACAAAAAATTGACGCTGTGATACTGGTCTCATAATCTGGCGCAAAAGTATTGCATCGATGTGAGATAAGTCCAGACTTATTTCTCTTCGTAAACTATCATTAGCTTCATAAAACAAGCA / AGCTTGCTTGTTTTATGAAGCTAATGATAGTTTACGAAGAGAAATAAGTCTGGACTTATCTCACATCGATGCAATACTTTTGCGCCAGATTATGAGACCAGTATCACAGCGTCAATTTTTTGTTGCTCCTCTAG [tfoX promoter wild type]”: binds ([2]; 0.5 uM CRP, hypersensitive at -83 and -92).

“AGCTTCATGCTCACTATCACTACCGTTGCATTCTCTTGCTAATCATCAACATGCACATACTTTACCGTTTCGCTAGCTAGAGGTCAGTGATAACCATCAAACCCCTATCTTTTATCTTATGTGATTAAACGCAGCGTGCTACCG / AATTCGGTAGCACGCTGCGTTTAATCACATAAGATAAAAGATAGGGGTTTGATGGTTATCACTGACCTCTAGCTAGCGAAACGGTAAAGTATGTGCATGTTGATGATTAGCAAGAGAATGCAACGGTAGTGATAGTGAGCATGA [cqsS promoter wild type]”: binds ([2]; 3 uM CRP); binds ([1]; 1-3 uM AphA, 37 bp footprint, cooperative, residues 1-179); binds [3]. “AGCTTCATGCTCACTATCACTACCGTTGCATTCTCTTGCTAATCATCAACATGCACATACTTTACCGTTTCGCTAGCTAGAGGTCAGTGATAACCATCAAACCCCTATCTTTTATCTTATGTGATTAAACGCAGCGTGCTACCG / AATTCGGTAGCACGCTGCGTTTAATCACATAAGATAAAAGATAGGGGTTTGATGGTTATCACTGACCTCTAGCTAGCGAAACGGTAAAGTATGTGCATGTTGATGATTAGCAAGAGAATGCAACGGTAGTGATAGTGAGCATGA [cqsS promoter wild type]”: binds [4]; binds [5]; binds [6].

The exact form of at least one protein or probe is not confirmed.
